Reference: paper PMC4518248, “A potent broad-spectrum protective human monoclonal antibody crosslinking two haemagglutinin monomers of influenza A virus” (2015)

Molecular target: recombinant H7 HA ectodomain of A/Anhui/1/2013 (H7N9) (influenza A virus A/Anhui/1/2013 (H7N9))
Test: crystal structure; […]

With “recombinant H7 HA ectodomain of A/Anhui/1/2013 (H7N9) (domain or fragment)” the stoichiometry N was 3.
